Results of unrelated studies side by side (data: NIAID ChemDB).

Shared fields: tests on isolated targets; organism: HIV-1; target: Protease; read-out: inhibition

Blank or dashed fields: not listed here.

SMILES	read by	tested at	value
CC[C@H](C)[C@H](NC(=O)[C@H](CCC(N)=O)NC(=O)[C@@H]1CCCN1C(C)=O)C(=O)N[C@H](C(=O)N[C@@H](CC(C)C)C(=O)O)[C@@H](C)O	HPLC	800 µg/mL	10%
Cc1cn([C@@H]2C[C@@H](N=[N+]=[N-])[C@H](COC(=O)CCCC(=O)N[C@@H](Cc3ccccc3)[C@H](O)C(=O)N3CSC[C@H]3C(=O)NC(C)(C)C)O2)c(=O)[nH]c1=O		5 µM	12%
CC(C)(C)NC(=O)c1ccccc1C[C@@H](O)[C@H](Cc1ccccc1)NC(=O)[C@@H](CSc1ccccc1)NC(=O)OC(C)(C)C	fluorescence	2 µg/mL	3%
CSCC[C@H](NC(=O)[C@H](Cc1cnc[nH]1)NC(C)=O)C(=O)N[C@H](C(=O)N[C@@H](CC(C)C)C(=O)N[C@@H](CC(N)=O)C(=O)N[C@@H](Cc1ccccc1)C(=O)O)[C@@H](C)O	HPLC	266 µg/mL	46%
CC(C)[C@H](NC(=O)[C@H](CCCN=C(N)N)NC(=O)N[C@@H](Cc1ccccc1)C(=O)O)C(=O)N[C@H](C=O)Cc1ccccc1		10 µM	~95%
CC(=O)N[C@H](C(=O)N[C@@H](CC(C)C)C(=O)N[C@@H](CC(N)=O)C(=O)N[C@@H](Cc1ccccc1)C(=O)O)[C@@H](C)O	HPLC	800 µg/mL	40%
CC(C)(C)NC(=O)c1ccccc1C[C@@H](O)[C@H](Cc1ccccc1)NC(=O)[C@H](N)CSCc1ccccc1	fluorescence	1 µg/mL	16%
CCCO[C@H]1[C@H](OCc2ccccc2)[C@@H](O)[C@H](Oc2ccccc2)O[C@@H]1CNC(=O)C(NC(C)=O)C(C)C		100 µM	20%
CC(C)(CO)NC(=O)[C@@H]1CCCN1C(=O)[C@@H](O)[C@H](Cc1ccccc1)NC(=O)[C@H](CC(N)=O)NC(=O)OCc1ccccc1		0.05 µM	37.8%
CCOC(=O)[C@@]1(C)CC[C@]2(C)CC[C@]3(C)C(=CC(=O)[C@@H]4[C@@]5(C)CC/C(=N\OCc6ccc(Cl)cc6)C(C)(C)[C@@H]5CC[C@]43C)[C@@H]2C1	substrate cleavage / fluorescence	1000 µg/mL	11.8%
CCCC1(CCC)OC(=O)C(C(c2cccc(NS(=O)(=O)c3cn(C)cn3)c2)C2CC2)=C1O	fluorescence	3.3 µM	100%
CSCC[C@H](NC(C)=O)C(=O)N[C@@H](Cc1ccccc1)[C@H](O)Cc1ccccc1C(=O)NC(C)(C)C	fluorescence	1 µg/mL	45%
CCCC1(Cc2ccccc2)OC(=O)C(C(c2ccccc2)C2CC2)=C1O	fluorescence	3.3 µM	100%
CC(C)(C)NC(=O)[C@H]1N(C(=O)[C@@H](O)[C@H](Cc2ccccc2)NC(=O)[C@H](CC(N)=O)NC(=O)OCc2ccccc2)CSC1(C)C		0.05 µM	96.2%
CCOC(=O)[C@@]1(C)CC[C@]2(C)CC[C@]3(C)C(=CC(=O)[C@@H]4[C@@]5(C)CC/C(=N\OCc6ccc(C(F)(F)F)cc6)C(C)(C)[C@@H]5CC[C@]43C)[C@@H]2C1	substrate cleavage / fluorescence	1000 µg/mL	26.2%
CCCC1(Cc2ccccc2)OC(=O)C(C(c2cccc(NS(=O)(=O)c3ccccc3)c2)C(C)C)=C1O	fluorescence	3.3 µM	100%
CC(C)C[C@H](NC(=O)[C@@H]1CCCN1C(=O)[C@@H](O)[C@H](Cc1ccccc1)NC(=O)[C@H](CC(N)=O)NC(=O)CCc1ccccc1)C(=O)N[C@H](C(N)=O)C(C)C		5 µM	51.8%
CCOC(=O)[C@@]1(C)CC[C@]2(C)CC[C@]3(C)C(=CC(=O)[C@@H]4[C@@]5(C)CC/C(=N\OCc6cc(F)cc(F)c6)C(C)(C)[C@@H]5CC[C@]43C)[C@@H]2C1	substrate cleavage / fluorescence	1000 µg/mL	39.3%
CC[C@H](C)[C@H](NC(C)=O)C(=O)NCC(=O)N[C@@H](CC(C)C)C(=O)N[C@H](C(=O)N[C@@H](CC(C)C)C(=O)N[C@@H](CC(N)=O)C(=O)N[C@@H](Cc1ccccc1)C(=O)O)[C@@H](C)O	HPLC	266 µg/mL	18%
Cc1cn([C@@H]2C[C@@H](N=[N+]=[N-])[C@H](COC(=O)CC(C)(C)CC(=O)N[C@@H](Cc3ccccc3)[C@H](O)C(=O)N3CSC[C@H]3C(=O)NC(C)(C)C)O2)c(=O)[nH]c1=O		5 µM	12%
CC[C@H](C)[C@H](NC(=O)[C@@H]1CCCN1C(=O)[C@H](O)[C@H](Cc1ccccc1)NC(=O)[C@H](CO)NC(=O)CCc1ccccc1)C(=O)N[C@H](C(N)=O)C(C)C		1000 µM	84.3%
CO[C@H]1[C@H](OCc2ccccc2)[C@@H](O)[C@H](Oc2ccccc2)O[C@@H]1CNC(=O)C(NC(C)=O)C(C)C		100 µM	19%
CC(=O)N[C@H](C(=O)N[C@@H](CC(C)C)C(=O)N[C@@H](CC(N)=O)C(=O)N[C@@H](Cc1ccccc1)C(N)=O)[C@@H](C)O	HPLC	266 µg/mL	12%
O=C(N[C@@H](Cc1ccccc1)[C@H](O)[C@H](O)[C@@H](Cc1ccccc1)NC(=O)c1ccccc1O)c1ccccc1O	substrate cleavage	10 µM	32%
CCCC1(CCc2ccccc2)OC(=O)C(C(c2ccccc2)C2CC2)=C1O	fluorescence	3.3 µM	100%
CC(C)[C@H](N)C(=O)N[C@H](C(=O)N[C@@H](Cc1ccccc1)[C@H](O)C(=O)N[C@@H](Cc1ccccc1)C(=O)N[C@H](C(=O)N[C@H](C(N)=O)C(C)C)C(C)C)C(C)C		1000 µM	94.9%
CCCC1(CCC)OC(=O)C(C(c2cccc(NS(=O)(=O)c3ccc(F)cc3)c2)C2CC2)=C1O	fluorescence	3.3 µM	100%
CS(=O)(=O)C[C@H](NC(=O)COc1cccc2ccccc12)C(=O)N[C@@H](Cc1ccccc1)[C@H](O)C(=O)N1CSC[C@H]1C(=O)NC1CCC(O)CC1		5 µM	>90%
CCOC(=O)[C@@]1(C)CC[C@]2(C)CC[C@]3(C)C(=CC(=O)[C@@H]4[C@@]5(C)CC/C(=N\OCc6ccccc6F)C(C)(C)[C@@H]5CC[C@]43C)[C@@H]2C1	substrate cleavage / fluorescence	1000 µg/mL	21.1%
CC[C@H](C)[C@H](NC(=O)[C@@H]1CCCN1C(=O)[C@H](O)[C@H](Cc1ccccc1)NC(=O)[C@H](CO)NC(=O)Cc1ccccc1)C(=O)N[C@H](C(N)=O)C(C)C		5 µM	57.2%
O=C1OC2(CCCCCC2)C(O)=C1C(c1ccccc1)C1CC1	fluorescence	3.3 µM	100%
CC(C)(C)NC(=O)[C@@H]1CCCN1C(=O)[C@@H](O)[C@H](CC1CCCCC1)NC(=O)[C@H](CC(N)=O)NC(=O)OCC1c2ccccc2-c2ccccc21		0.05 µM	46.5%
CCOC(=O)[C@@]1(C)CC[C@]2(C)CC[C@]3(C)C(=CC(=O)[C@@H]4[C@@]5(C)CC/C(=N\OCc6ccc(C#N)cc6)C(C)(C)[C@@H]5CC[C@]43C)[C@@H]2C1	substrate cleavage / fluorescence	1000 µg/mL	23.4%

Neighbouring rows are from separate reports. Percent inhibition refers to the dose given; in toxicity tests it is the harm to the cells.